Data as given in PubChem BioAssay AID1259414 (Drosophila RNAi Screening Center, 2018)

Assay: 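Fly genes that alter Wolbachia amount inside host cells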 (primary screen)
System: Drosophila JW18 cells infected with Wolbachia
Reagents: long dsRNA against Drosophila genes, 0.25 µg dsRNA per well of a 384-well plate
Timing: 5 days
Treatment: cells persistently infected with Wolbachia before knock-down; no added drug
Measurement: 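Automated imaging of bacterial rRNA staining divided by host cell count, reported as plate-normalised robust z-score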
Scale: Wolbachia per cell robust z: higher = more Wolbachia per host cell than the plate typical
Rule for the call: 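Active if absolute robust z reaches 1.5 in two or more of three replicates, leaving out multi- or no-target dsRNAs, genes unexpressed in JW18 and A1 wells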
In all, the deposit lists about 24,000 reagents; shown is an unselected part of those with a known target gene and a result. In the full data, about 1,210 (5%) are marked active. 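Inactive calls also include excluded dsRNAs with several or no targets, genes unexpressed in JW18, and well A1, regardless of score.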 Entries without a mark were called inactive.

gene	DRSC id	Wolbachia per cell robust z, rep 1	Wolbachia per cell robust z, rep 2	Wolbachia per cell robust z, rep 3
RhoGAP102A	DRSC17145	0.148	-6.5	0.676
RhoGAP102A	DRSC38803	1.63	0.345	0.637
fok	DRSC02103	-2.12 (active)	-4.35	-1.5
fok	DRSC23907	-0.339	-1.02	-0.544
CG11113	DRSC06039	1.05	-5.15	1.4
CG14339	DRSC00369	-1.74	-0.918	-0.589
CG14339	DRSC26560	-0.605	-1.59	-1.77
CG42674	DRSC10066	-0.949	-1.9	-1.01
CG42674	DRSC10067	0.0483	0.00774	0.437
CG42674	DRSC10811	0.195	-8.34	0.473
CG42674	DRSC25036	0.401	1.63	-0.0969
CG42674	DRSC29701	-6.17 (active)	1.17	-2.48
Hgsnat	DRSC18405	-1.42	0.678	-2.1
Hgsnat	DRSC24716	1.14	-0.00388	0.892
Lkb1	DRSC16481	-0.213	0.298	0.261
CG16998	DRSC10235	-0.239	-0.689	-0.509
E(var)3-9	DRSC23242	-2.99	0.232	0.513
E(var)3-9	DRSC29480	-0.999	-0.345	-0.31
CG11251	DRSC09825	-0.931	0.43	-0.168
mRpS23	DRSC01348	-0.592 (active)	-1.59	-4.54
Pgant4	DRSC00717	-4.39	0.067	-0.186
Pgant4	DRSC29585	0.205	-0.534	0.481
Cip4	DRSC08469	0.656	1.19	2.15
Cip4	DRSC21740	-2.32	-1.5	-1.36
TfIIFalpha	DRSC12608	0.628	-0.354	-0.218
TfIIFalpha	DRSC26379	0.257	-0.22	-0.379
TfIIFalpha	DRSC38961	0.0651	0.164	-1.39
sunn	DRSC21659	-1.17	-1.57	-1.27
CG15539	DRSC15075	-0.528	-0.128	0.0504
CG14770	DRSC17947	1.23	-0.375	-2.8
Marf1	DRSC03747	0.77	0.964	1.67
Marf1	DRSC03774	0.259	0.93	1
qm	DRSC11386	-1.79	-0.525	-1.22
qm	DRSC26597	0.0165	0.547	1.38
CG40485	DRSC38788	1.7	0.787	2.18
Zw	DRSC20303	-0.303	0.0904	-0.444
Zw	DRSC27667	-1.38	-0.302	-0.998
CG10887	DRSC14277	-0.426	0.536	-0.633
CG10887	DRSC27820	-0.148	1.44	0.621
Gr47b	DRSC05275	0.281	0.0154	2.63
Rab7	DRSC16810	3.35	-0.00923	-0.67
CG46491	DRSC06565	0.212	0.33	0.91
CG46491	DRSC06566	0.12	0.254	-0.454
CG1172	DRSC12182	-2	0.395	0.346
CG1172	DRSC21954	-1.55	-0.565	-0.121
CG1172	DRSC23672	1.31	-0.0648	0.0391

Copied from the list:
Entry of TfIIFalpha [DRSC26379] in “Wolbachia per cell robust z, rep 3”: -0.379
Under “Wolbachia per cell robust z, rep 2”, CG42674 [DRSC25036] shows 1.63
